Source: ChEMBL document CHEMBL5728271, “Cyclohexene compounds and use thereof” (2021)

Assay: Activity assay for influenza virus neuraminidase: Experimental materials:NA (neuraminidase) solution: allantoic fluid of chicken embryo infected by influenza virus;Enzyme catalyzed reaction system: 330 mmol/L of MES buffer solution (pH 3.5); 200 μmol/L of fluorogenic substrate MUNANA (2′-(4-methylumbelliferyl)-α-D-N-acetylneuraminic acid);4 mmol/L of CaCl2 solution; Stop buffer: 14 mmol/L

SMILES	IC50
CC(=O)N[C@H]1[C@H](N2CCC[C@@H](OCCOCC3CC3)C2)C=C(OC=O)C[C@@H]1N	5.5 nM
CC(=O)N[C@H]1[C@H](N2CCC[C@H](OCCOC(=O)N3CCOCC3)C2)C=C(C(=O)O)C[C@@H]1N	5.5 nM
COCCO[C@@H]1CCCN([C@@H]2C=C(OC=O)C[C@H](NC(=N)N)[C@H]2NC(C)=O)C1	< 1 nM
COCCO[C@@H]1CCCN([C@@H]2C=C(OC=O)C[C@H](N)[C@H]2NC(C)=O)C1	< 1 nM
